The exact form of at least one protein or probe is not confirmed. Protein sequences can lack the tags named with them.
Target: T1, GST-HsORC2 (origin recognition complex subunit 2) (Homo sapiens) (UniProt Q13416)
T1 sequence (looked up, limits assumed): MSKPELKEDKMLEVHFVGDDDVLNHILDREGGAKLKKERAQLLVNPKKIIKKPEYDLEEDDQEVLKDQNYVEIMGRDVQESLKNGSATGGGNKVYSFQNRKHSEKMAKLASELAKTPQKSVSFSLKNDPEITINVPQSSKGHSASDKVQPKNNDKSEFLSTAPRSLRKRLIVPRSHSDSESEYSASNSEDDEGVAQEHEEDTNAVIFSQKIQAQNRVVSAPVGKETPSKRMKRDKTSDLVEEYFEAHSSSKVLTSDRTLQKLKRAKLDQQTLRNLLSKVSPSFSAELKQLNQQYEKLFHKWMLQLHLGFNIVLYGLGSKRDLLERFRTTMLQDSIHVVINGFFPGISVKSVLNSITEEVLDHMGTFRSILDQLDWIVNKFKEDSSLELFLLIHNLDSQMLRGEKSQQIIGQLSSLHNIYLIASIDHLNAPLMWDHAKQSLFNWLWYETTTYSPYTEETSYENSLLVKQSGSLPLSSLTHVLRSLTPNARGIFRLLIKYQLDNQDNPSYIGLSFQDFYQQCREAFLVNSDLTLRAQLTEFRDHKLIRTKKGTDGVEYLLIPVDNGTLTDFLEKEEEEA
Assay: EMSA
Conditions: 5 mM MgCl2, 1 mM ATP, 70 mM KCl, poly(dI/dC), 25 C; supershift with anti-ORC2; specific cold competitor abolishes; purified recombinant protein; protein details: GST fusion, expressed in E. coli; label: 32P

**Q.** Does “AAAACTTTAAA (double strand) [ACS probe (11 bp ACS-like site plus 22 bp upstream)]” bind?
**A.** Result: binds
